The target of this series is TetR-PML IV fusion (UniProt P04483). Description: binding assay. As to conditions: protein in cells.

Chains of the proteins cited; added tags and fusions are not shown. Lines headed by an entry give the natural chain unless they say otherwise; changes in a name come on top.
UniProt P04483: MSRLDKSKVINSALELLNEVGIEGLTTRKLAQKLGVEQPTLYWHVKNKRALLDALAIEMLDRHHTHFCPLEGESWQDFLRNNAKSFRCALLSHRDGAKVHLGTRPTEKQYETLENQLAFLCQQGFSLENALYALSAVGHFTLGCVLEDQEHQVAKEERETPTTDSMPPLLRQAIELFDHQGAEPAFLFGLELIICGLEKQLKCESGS

This is an account of results in patent publication US20070134665.

Results from cells or extracts need not show a direct contact. A negative result means that nothing was seen under these conditions.

Turning to “GCGTGTGCCAGAATTGTGAGCGCTCACAATTTCTTGAATCT / AGATTCAAGAAATTGTGAGCGCTCACAATTCTGGCTCACGC [O-Sym]”, the binding result (multiplex detection in co-transfected cells, no co-localisation of signals, label: 5' Cy3 or biotin) is recorded as “no binding”.
“TCGAGTTTACTCCCTATCAGTGATAGAGAACGTATGTCGCC / GGCGACATACGTTCTCTATCACTGATAGGGAGTAAACTCGT [Tet-O]”: under “in situ fluorescence in fixed cells, 50-100 nM Cy5 Tet-O, 150 mM KCl, herring sperm DNA, 37 C, label: 5' Cy5 or biotin”, the binding result is listed as “binds”.
